Compound potency records, mixed from different reports. Data source: NIAID ChemDB in PubChem.

Shared fields: enzyme or target tests; organism: HIV; protein: Reverse transcriptase; endpoint: fold resistance

Lines come from different laboratories, so protocols vary. Blank or dashed fields: not listed here. Fold resistance: result on the changed form divided by that on wild type.

compound | strain | method | changes | value
CCc1c([Se]c2ccccn2)n(COCc2ccccc2)c(=O)[nH]c1=O | - | RT activity | RT-V90A | 1
CC[C@]1(c2ccccc2)Oc2cccnc2-n2cccc2C1=O | MDR | nucleotide incorporation / radiometric | RT-M41L K103N T215Y | 88
Cc1cc(C)cc(Sc2c(C(C)C)c(=O)[nH]c(=S)n2COCCO)c1 | - | nucleotide incorporation | RT-E138K | 1.8
C[C@H](Cn1cnc2c(N)ncnc21)OCP(=O)(O)OP(=O)(O)OP(=O)(O)O | - | - | RT-K65R | 4
Cc1c(C(C)c2c(F)cccc2F)nc(NC2CCCC2)[nH]c1=O | - | nucleotide incorporation / radiometric | V179D | 10
Cc1cn([C@@H]2O[C@H](CO[Si](C)(C)C(C)(C)C)[C@@]3(OS(=O)(=O)C=C3N)[C@H]2O[Si](C)(C)C(C)(C)C)c(=O)[nH]c1=O | - | nucleotide incorporation | RT-E138K | >150
COc1ccc2c(c1)N(C(=O)OC(C)C)[C@@H](CSC)C(=S)N2 | - | RT activity | RT-D67N K70R T215F K219Q Y188H | 4.67
Nc1nc2c(ncn2[C@H]2CC[C@@H](COP(=O)(O)OP(=O)(O)OP(=O)(O)O)O2)c(=O)[nH]1 | - | nucleotide incorporation | RT-Y181C | 0.375
Cc1cn([C@@H]2O[C@H](CO[Si](C)(C)C(C)(C)C)[C@@]3(OS(=O)(=O)C=C3N)[C@H]2O[Si](C)(C)C(C)(C)C)c(=O)[nH]c1=O | - | nucleotide incorporation / radiometric | RT-N137E | 1.3
Cc1cn([C@@H]2O[C@H](CO[Si](C)(C)C(C)(C)C)C3(OS(=O)(=O)C=C3N)[C@H]2O[Si](C)(C)C(C)(C)C)c(=O)n(C)c1=O | - | RT activity | RT-V106A P225H | >276
Nc1ccn([C@H]2CC[C@@H](COP(=O)(O)OP(=O)(O)OP(=O)(O)O)O2)c(=O)n1 | - | - | RT-K65R S68G | 2.25
CC(C)Nc1cccnc1N1CCN(C(=O)c2cc3ccccc3[nH]2)CC1 | - | nucleotide incorporation | RT-V106A | 9.38
CCNc1cccnc1N1CCN(C(=O)c2cc3cc4c(cc3[nH]2)OCO4)CC1 | - | - | RT-Y181C P236L | 45.5
CCc1c(Sc2ccccn2)n(COCc2ccccc2)c(=O)[nH]c1=O | - | RT activity | RT-V90A | 1
Cc1cn([C@@H]2O[C@H](CO[Si](C)(C)C(C)(C)C)C3(OS(=O)(=O)C=C3N)[C@H]2O[Si](C)(C)C(C)(C)C)c(=O)n(C)c1=O | - | - | RT-E138K(P51 ONLY) | 38.5
Nc1ncnc2c1ncn2[C@H]1CC[C@@H](COP(=O)(O)OP(=O)(O)OP(=O)(O)O)O1 | - | - | RT-K65R | 4.82
CC(=O)c1ccc(C)cc1NC(C(N)=O)c1c(Cl)cccc1Cl | - | RT activity | RT-V106A P225H | 16
Cc1c(Sc2ccccc2)n(COCCO)c(=O)[nH]c1=O | - | - | RT-K103N Y181I | >10
Nc1nc2c(ncn2[C@H]2CC[C@@H](COP(=O)(O)OP(=O)(O)OP(=O)(O)O)O2)c(=O)[nH]1 | - | - | RT-E138K(P51 ONLY) | 0.2
CCOc1ccccc1N1CCN(C(=O)c2cc3ccccc3[nH]2)CC1 | - | - | RT-Y181C P236L | 6.1

The first 2 rows once more:

compound	strain	method	changes	value
CCc1c([Se]c2ccccn2)n(COCc2ccccc2)c(=O)[nH]c1=O	-	RT activity	RT-V90A	1
CC[C@]1(c2ccccc2)Oc2cccnc2-n2cccc2C1=O	MDR	nucleotide incorporation / radiometric	RT-M41L K103N T215Y	88